Results of unrelated studies side by side (data: NIAID ChemDB).

Shared fields: tests in culture; species: Mycobacterium tuberculosis

Neighbouring rows are from separate reports. ECn: concentration that inhibits the pathogen or its effect by n%. A number after MIC or MFC names an inhibition level or a share of isolates. a–b is a range or a potency band. Blank or dashed fields: not listed here. Inhibition is in % at the dose shown (toxicity tests: loss of growth or viability). MIC bound: limit read from a one-dose screen.

smiles,setting,mutations,cell line,measure,strain,dose,method,value
CCN1CCN(c2cc(-c3ccccc3)c3ccc(=O)[nH]c3n2)CC1,,,,MIC,H37Rv,,,>6.25 µg/mL
Cc1c(C(=O)NC(C)(C)C)[n+](=O)c2cc(Cl)c(Cl)cc2n1[O-],,,VERO,inhibition,H37Rv,6.25 µg/mL,,100%
CC(=O)OCc1cc(=O)n(C)c2c3c4c(cc12)c(C)cc(=O)n4CO3,,,,MIC bound,H37Rv,,BACTEC,≤12.8 µg/mL
Cc1cc2c(cc1C)[n+](=O)c(C(=O)Nc1ccccc1C)c(C)n2[O-],,,,MIC,H37Rv,,,>6.25 µg/mL
COCCN(C1CCN(CC2C(c3ccccc3)=Nc3c(C)cc(C)cc32)C1)S(C)(=O)=O,,,,MIC,,,,100 µM
C/C(=N\Nc1ccc2ccccc2n1)c1ccccn1,,,,inhibition,H37Rv,12.5 µg/mL,BACTEC,1%
CCN(CC)CCCN=c1cc2n(-c3ccc(Cl)c(Cl)c3)c3ccccc3nc-2cc1Nc1ccc(Cl)c(Cl)c1,multidrug-resistant,,,MIC,2219,,,0.25 µg/mL
CC(NC(=O)c1c(F)cccc1Cl)c1nnc(SCCOc2ccc(F)cc2)n1Cc1cccnc1,14 d,,,MIC,H37Rv (ATCC 27294),,broth dilution,>64 µg/mL
Cc1ccc(/C=N/NC(=O)c2ccncc2)s1,,,VERO,MIC,H37Rv,,,0.123 µg/mL
Cc1cc2c(cc1C)[n+](=O)c(C(=O)N1CCN(c3ccc(Cl)cc3)CC1)c(C)n2[O-],,,,MIC,H37Rv,,,>6.25 µg/mL
CCOC(=O)c1cc(-c2ccc(C)cc2)n(CCC(=O)NN)c1C,,,,inhibition,H37Rv,6.25 µg/mL,BACTEC,0%
Cc1ccc2c(c1)[n+](=O)c(Cl)c(C)n2[O-],,,,MIC,H37Rv,,,3.13 µg/mL
COc1ccc(/C=N/NC(=O)c2c(C)c[nH]c2C)cc1,,,,EC50,H37Rv,,BACTEC,>6.25 µg/mL
OC(c1cc(C23CC4CC(CC(C4)C2)C3)nc2c(Cl)cc(Cl)cc12)C1CCCCN1,,,,MIC,H37Rv,,resazurin,0.39 µg/mL
CCOC(=O)c1cc(-c2ccc([N+](=O)[O-])cc2)n(CC(=O)N/N=C/c2ccc(O)c(OCC)c2)c1C,,,,inhibition,H37Rv,6.25 µg/mL,BACTEC,0%
O=C(O)COc1ccc(-c2ccc(Cl)cc2)c(CN2CCN(c3ccccn3)CC2)c1,,,,MIC,H37Rv (ATCC 27294),,broth dilution,64 µg/mL
CC1=NC2=Nc3cc[n+](C4O[C@H](CO)[C@@H](O)[C@H]4O)c(=O)n3CC2=CN1C,,,,MIC bound,H37Rv,,BACTEC,>12.5 µg/mL
Cc1ccc2c(c1)[n+](=O)c(C(=O)Nc1ccccc1)c(C)n2[O-],,,,inhibition,H37Rv,6.25 µg/mL,,62%
Cc1cccc(C)c1NC(=O)C(=O)C1C(=O)N(c2ccccc2)N=C1N,,,,inhibition,H37Rv,6.25 µg/mL,resazurin,-29%
NC[C@H]1O[C@H](O[C@H]2[C@H](O)[C@@H](O[C@H]3O[C@H](CO)[C@@H](O)[C@H](N)[C@H]3O)[C@H](N)C[C@@H]2N)[C@H](O)[C@@H](O)[C@@H]1O,,,,MIC,Isolate 10,,,32 µg/mL
CCN1CCN(c2cc(-c3ccccc3)c3ccc(OC)nc3n2)CC1,,,,inhibition,H37Rv,6.25 µg/mL,,72%
Cc1c(C(=O)Nc2ccccc2)[n+](=O)c2ccccc2n1[O-],,,VERO,inhibition,H37Rv,6.25 µg/mL,,100%
Cc1c[nH]c(C)c1C(=O)N/N=C/c1ccc([N+](=O)[O-])o1,,,,inhibition,H37Rv,6.25 µg/mL,BACTEC,0%
O=C(O)c1c2n(c3cc([N+](=O)[O-])c(N4CCC5(CC4)OCCO5)cc3c1=O)CS2,,MDR-TB,,MIC,H37Rv,,agar,<0.09 µM
CCOC(=O)c1c(C)c(-c2ccccc2)n(CC(=O)N/N=C/c2ccc([N+](=O)[O-])o2)c1C,,,,inhibition,H37Rv,6.25 µg/mL,BACTEC,31%
Cc1ccc(CSc2ccncc2)cc1,,,,inhibition,H37Rv,6.25 µg/mL,,6%
O=C(NNC(=O)c1ccncc1)Nc1ccc(F)c(Cl)c1,21 d,,,MIC100,My 331/88,,broth dilution,125 µM
O=C(O)COc1ccc(-c2ccc(C(F)(F)F)cc2)c(CN2CCN(c3ccccn3)CC2)c1,,,,MIC,H37Rv (ATCC 27294),,broth dilution,32 µg/mL
Cc1c(S(=O)(=O)c2ccccc2)[n+](=O)c2ccc(Cl)cc2n1[O-],,,,MIC,H37Rv,,,6.25 µg/mL
CCOC(=O)c1c(C)c(-c2ccccc2)n(CC(=O)N/N=C/c2cc3ccccc3[nH]2)c1C,,,,EC50,H37Rv,,BACTEC,>6.25 µg/mL
Cn1c(=O)nc2n(-c3ccc(Cl)cc3)c(-c3ccccc3)c(-c3ccccc3)nc-2c1=O,,,,inhibition,H37Rv,12.5 µg/mL,BACTEC,0%
O=C(NNC(=O)c1ccncc1)Nc1ccc(Cl)c(C(F)(F)F)c1,14 d,,,MIC100,My 331/88,,broth dilution,32 µM
O=[N+]([O-])c1cc2cc(-c3ccccc3)c(N3CCCCC3)nc2nc1N1CCCCC1,,,,inhibition,H37Rv,6.25 µg/mL,,79%
O=C(O)COc1ccc(-c2ccncc2)c(CN2CCN(c3ccccn3)CC2)c1,,,,MIC,H37Rv (ATCC 27294),,broth dilution,32 µg/mL
CC1CN(c2cc3c(=O)c(C(=O)O)c4n(c3cc2F)CS4)CC(C)O1,,,,MIC,H37Rv,,agar,4.28 µM
CO[C@H]1/C=C/O[C@@]2(C)Oc3c(C)c(O)c4c(O)c(c(/C=N/N5CCN(C)CC5)c(O)c4c3C2=O)NC(=O)/C(C)=C\C=C\[C@H](C)[C@H](O)[C@@H](C)[C@@H](O)[C@@H](C)[C@H](OC(C)=O)[C@@H]1C,,,,MIC,DprE1,,,0.01 µM
CC(C)=CCOc1c2ccoc2cc2oc(=O)ccc12.NNC(=O)c1ccncc1,,Isoniazid-resistant,,MIC100,H37Rv clinical isolate CRY2,,agar,6.25 µg/mL
Cc1ccc2c(c1)n([O-])c(C)c(Cl)[n+]2=O,,,,MIC,H37Rv,,,3.13 µg/mL
NC[C@@H]1O[C@H](O[C@H]2[C@@H](O)[C@H](O[C@@H]3[C@@H](O)[C@H](N)C[C@H](N)[C@H]3O[C@H]3O[C@H](CO)[C@@H](O)C[C@H]3N)O[C@@H]2CO)[C@H](N)[C@@H](O)[C@@H]1O[C@H]1O[C@H](CO)[C@@H](O)[C@H](O)[C@@H]1O,,,,EC50,H37Rv (viomycin-resistant),,,25–50 µg/mL
C[C@@H]1CN(c2c(F)c(N)c3c(=O)c(C(=O)O)cn(C4CC4)c3c2F)C[C@H](C)N1,,,,MIC,Isolate 12,,,0.13 µg/mL
CCCCCc1ccc(NC(=O)NNC(=O)c2ccncc2)cc1,14 d,,,MIC100,My 331/88,,broth dilution,32 µM
Cc1ccc2c(c1)[n+](=O)c(C(=O)N1CCN(c3ccc([N+](=O)[O-])cc3)CC1)c(C)n2[O-],,,,inhibition,H37Rv,6.25 µg/mL,,0%
c1ccc(-c2cc3ccc(N4CCCCC4)nc3nc2N2CCCCC2)cc1,,,VERO,inhibition,H37Rv,6.25 µg/mL,,99%
O=C(O)c1c2n(c3cc(F)c(N4CCC(n5c(=O)[nH]c6ccc(Cl)cc65)CC4)cc3c1=O)CS2,,,,MIC,H37Rv,,agar,1.56 µM
N/C(=N\NS(=O)(=O)c1ccccc1)N[N+](=O)[O-],,,,MIC bound,H37Rv,,resazurin,>6.25 µg/mL
CO/N=C1\CN(c2nc3c(cc2F)c(=O)c(C(=O)O)cn3C2CC2)CC1CN,,,,MIC90,206 isolates (susceptible),,,8 µg/mL
Cc1cccc2c1N=C(c1ccccc1)C2CN1CCC(N)C1,,,,MIC,,,,3.12 µM
O=C(O)c1cn2c(n1)CN(c1cc3c(=O)c(C(=O)O)c4n(c3cc1[N+](=O)[O-])CS4)CC2,,MDR-TB,,MIC,H37Rv,,agar,0.09 µM
Cc1c(Sc2ccccc2)[n+](=O)c2cc(Cl)ccc2n1[O-],,,,inhibition,H37Rv,6.25 µg/mL,,100%
COc1cc(CSc2nc(=O)[nH]c3nc[nH]c23)cc(OC)c1,,,,MIC90,H37Rv,,,>6.25 µg/mL
CCOC(=O)c1cc(-c2ccc(OC)cc2)n(CC(=O)NN)c1C,,,,inhibition,H37Rv,6.25 µg/mL,BACTEC,0%
O=C(N/N=C/c1ccc(O)cc1O)C(=O)N/N=C/c1ccc(O)cc1O,,,,MIC bound,H37Rv,,BACTEC,>12.5 µg/mL
Nc1cc2cc(-c3ccccc3)c(N3CCCCC3)nc2nc1N1CCCCC1,,,,MIC,H37Rv,,,>6.25 µg/mL
COc1ccc(Sc2ncccn2)cc1OC,,,,inhibition,H37Rv,6.25 µg/mL,,0%
OC(c1ccccc1)(c1ccc2ccccc2n1)c1cccs1,,,,MIC bound,H37Rv,,,>6.25 µg/mL
Nc1ccc2c(-c3ccccc3)cc(N3CCCCC3)nc2n1,,,,inhibition,H37Rv,6.25 µg/mL,,91%
OCC(O)COCCCCCCCCCCCC1C=CCC1,,,VERO,MIC,H37Rv,,BACTEC,0.8 µg/mL
COc1cccc(CSc2ncccn2)c1,,,,inhibition,H37Rv,6.25 µg/mL,,0%
O=C(NNC(=O)c1ccncc1)Nc1ccc(Br)cc1F,21 d,,,MIC100,My 331/88,,broth dilution,32 µM
NNC(=O)c1ccncc1,,,,MIC,PR455,,,0.16 µg/mL
O=C(NNC(=O)c1ccncc1)Nc1ccc(F)cc1Br,21 d,,,MIC100,My 331/88,,broth dilution,16 µM
C/C(=C1/N=C(c2ccccc2)OC1=O)c1cccs1,,,,inhibition,H37Rv,12.5 µg/mL,BACTEC,98%
Cc1c(F)c(N2CCNC(C)C2)cc2c1c(=O)c(C(=O)O)cn2C1CC1,,,,MIC50,250 isolates,,,1 µg/mL
Cc1ccccc1NC(=O)c1c(C)n([O-])c2ccc(Cl)cc2[n+]1=O,,,VERO,inhibition,H37Rv,6.25 µg/mL,,98%
Cc1cc2c(=O)c3ccccc3oc2c(C#N)c1C,,,,MIC,H37Rv,,BACTEC,≥12.5 µg/mL
CCC(C)OC(=O)N1CCN(c2nc3nc(N4CCCCC4)ccc3cc2-c2ccccc2)CC1,,,,inhibition,H37Rv,6.25 µg/mL,,92%
CO[C@H]1/C=C/O[C@@]2(C)Oc3c(C)c(O)c4c(O)c(c(/C=N/N5CCN(C6CCCC6)CC5)c(O)c4c3C2=O)NC(=O)/C(C)=C\C=C\[C@H](C)[C@H](O)[C@@H](C)[C@@H](O)[C@@H](C)[C@H](OC(C)=O)[C@@H]1C,,,,MIC,Isolate 910328 rifampicin-resistant,,,64 µg/mL
NNC(=O)c1ccccc1SSc1ccccc1C(=O)NN,,,,MIC bound,H37Rv,,BACTEC,>12.5 µg/mL
O=C(O)c1c2n(c3cc(F)c(N4CCN(C(=O)c5ccco5)CC4)cc3c1=O)CS2,,,,MIC,H37Rv,,agar,3.63 µM
C[C@H]1COC2(CCN(c3nc(=O)c4cc(C(F)(F)F)cc([N+](=O)[O-])c4s3)CC2)O1,,,,MIC,H37Rv,,,0.003–0.006 µM
Cc1ccccc1Sc1ncnc2nc[nH]c12,,,,MIC,H37Ra,,,>12.8 µg/mL
COc1ccc(N2CCN(C(=O)c3c(C)n([O-])c4ccccc4[n+]3=O)CC2)cc1,,,,MIC,H37Rv,,,>6.25 µg/mL
CCCCCCCCCCCc1c(O)c(O)c(-c2ccccn2)c2nonc12,,,,MIC bound,H37Rv,,BACTEC,>12.5 µg/mL
CCOC(=O)c1cc(-c2ccc(OC)cc2)n(CC(=O)N/N=C/c2ccc([N+](=O)[O-])o2)c1C,,,,inhibition,H37Rv,6.25 µg/mL,BACTEC,45%
CN(C)NC1=NS(=O)(=O)c2cc3c(=O)n(C)[nH]c3cc2S1,,,,MIC bound,H37Rv,,resazurin,>6.25 µg/mL
CC[C@@H](CO)NCCN[C@@H](CC)CO,,,,MIC,Isolate 13,,,1 µg/mL
N#Cc1sc2nc(/C=C3/C=CC=CC3=O)c(O)n2c1N,,,,inhibition,,0.5 µM,BACTEC,0%
O=C(O)c1c2n(c3cc(F)c(N4CCC(O)(c5ccc(Cl)cc5)CC4)cc3c1=O)CS2,,MDR-TB,,MIC,H37Rv,,agar,6.79 µM
O=C(O)C(=O)NCc1cnccn1,,,,MIC bound,H37Rv,,BACTEC,>12.5 µg/mL
Cc1ccccc1Sc1ncccn1,,,,inhibition,H37Rv,6.25 µg/mL,,0%
CC(C)c1ccc(C2NC(=S)NC3=C2c2ccccc2C3=O)cc1,,,,MIC bound,H37Rv,,BACTEC,≤12.5 µg/mL
Cc1cccc(C(N)=Nc2nc(-c3ccccn3)cc3ccccc23)c1,,,,MBC,,,,0.5 µg/mL
COC1=CC(=C2C=C(OC)C(=O)C(OC)=C2)C=C(OC)C1=O,,,,inhibition,H37Rv,12.5 µg/mL,BACTEC,0%
CCCCCCc1ccc(NC(=O)NNC(=O)c2ccncc2)cc1,21 d,,,MIC100,My 331/88,,broth dilution,62.5 µM

8 of the rows above, restated:

smiles,setting,mutations,cell line,measure,strain,dose,method,value
CC[C@@H](CO)NCCN[C@@H](CC)CO,,,,MIC,Isolate 13,,,1 µg/mL
COc1ccc(/C=N/NC(=O)c2c(C)c[nH]c2C)cc1,,,,EC50,H37Rv,,BACTEC,>6.25 µg/mL
COCCN(C1CCN(CC2C(c3ccccc3)=Nc3c(C)cc(C)cc32)C1)S(C)(=O)=O,,,,MIC,,,,100 µM
OC(c1ccccc1)(c1ccc2ccccc2n1)c1cccs1,,,,MIC bound,H37Rv,,,>6.25 µg/mL
Cc1cc2c(=O)c3ccccc3oc2c(C#N)c1C,,,,MIC,H37Rv,,BACTEC,≥12.5 µg/mL
Cc1ccc2c(c1)[n+](=O)c(C(=O)Nc1ccccc1)c(C)n2[O-],,,,inhibition,H37Rv,6.25 µg/mL,,62%
O=C(O)COc1ccc(-c2ccncc2)c(CN2CCN(c3ccccn3)CC2)c1,,,,MIC,H37Rv (ATCC 27294),,broth dilution,32 µg/mL
N/C(=N\NS(=O)(=O)c1ccccc1)N[N+](=O)[O-],,,,MIC bound,H37Rv,,resazurin,>6.25 µg/mL